Test results from ChEMBL document CHEMBL1126355, “The basis for slowly reversible inhibition of dehydroquinate synthase: a case of mistaken identity?” (Bioorg Med Chem Lett, 1992).

How the values were obtained:
[1] = target: T1, 3-dehydroquinate synthase (Escherichia coli K-12) (UniProt P07639); test: […] rate constant against 3-dehydroquinate synthase
T1 sequence (whole entry): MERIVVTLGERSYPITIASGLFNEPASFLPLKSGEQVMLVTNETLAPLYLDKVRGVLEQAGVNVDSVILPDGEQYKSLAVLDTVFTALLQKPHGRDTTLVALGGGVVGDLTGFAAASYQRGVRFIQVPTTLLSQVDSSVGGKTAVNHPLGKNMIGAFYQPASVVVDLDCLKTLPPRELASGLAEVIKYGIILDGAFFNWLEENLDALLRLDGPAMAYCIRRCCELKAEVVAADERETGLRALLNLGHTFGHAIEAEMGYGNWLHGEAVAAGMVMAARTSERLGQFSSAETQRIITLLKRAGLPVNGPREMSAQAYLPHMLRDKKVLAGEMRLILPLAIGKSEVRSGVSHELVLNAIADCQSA

[2] = target: T1, 3-dehydroquinate synthase (Escherichia coli K-12); test: Rate constant against 3-dehydroquinate synthase

## O=C(O)C1(O)CCC(O)C(CP(=O)(O)O)C1 (configuration not stated)
[1]
  k off: 0.00032 s⁻¹
[2]
  k on: 1500 M⁻¹ s⁻¹
